System: MT-4 cells
Experiment: Cytotoxicity by MTT method in MT-4 cells
Conditions: HIV-1, 5 days culture at 37°C

[Cu cyclam]Cl₂ [X, reference compound] was tested, and the CD₅₀ was 75.3 µg/mL.
“c-[Rh cyclam (NO₂)₂]Cl [reference compound]” gave a CD₅₀ greater than 250 µg/mL.

From patent EP0392666A2, “Anti-HIV compositions” (JOHNSON MATTHEY PUBLIC LIMITED COMPANY, priority 1989, dated 1990)
